Pooled drug test results. Numbers come from NIAID ChemDB, via PubChem.

All rows: target-level tests; species: HIV-1; target: Protease; method: HPLC; endpoint: Ki

Lines come from different laboratories, so protocols vary. Blank or dashed fields: not listed here.

compound	setting	changes	strain or isolate	result
CC(C)(C)OC(=O)N[C@H](/C(O)=C(\C#N)c1ccc([N+](=O)[O-])cc1)c1ccccc1				30 µM
CCCC[C@@H](CN[C@@H](CCCC)C(=O)N[C@@H](CCC(N)=O)C(=O)N[C@@H](CCCN=C(N)N)C(N)=O)NC(=O)[C@@H](NC(=O)[C@@H](NC(C)=O)[C@@H](C)O)[C@@H](C)CC				0.78 µM
CC(C)(C)NC(=O)[C@H]1N(C(=O)[C@@H](O)[C@H](Cc2ccccc2)NC(=O)[C@H](CC(N)=O)NC(=O)COc2cccc(Nc3ccccc3)c2)CSC1(C)C				0.000058 µM
CC(C)C[C@H](NC(=O)[C@H](CO)NC(=O)OC(C)(C)C)C(=O)N[C@@H](CC(N)=O)C(=O)N[C@@H](Cc1ccccc1)B(O)O				>10 µM
COc1ccc(C[C@H](NC(=O)c2cccc(O)c2C)[C@H](O)C(=O)N2CSC(C)(C)[C@H]2C(=O)NCc2c(C)cccc2C)cc1				0.000029 µM
Nc1cccc(CN2C(=O)N(Cc3cccc(N)c3)[C@H](Cc3ccccc3)[C@H](O)[C@@H](O)[C@H]2Cc2ccccc2)c1				0.00023 µM
CC(C)C[C@H](NC(=O)[C@@H](NC(=O)CCCCCCCCCCCCCCC(=O)N[C@@H](CC(N)=O)C(=O)N[C@@H](Cc1ccccc1)C(=O)O)C(C)O)C(=O)N[C@@H](Cc1ccccc1)C(N)=O				3 µM
Cc1cc(SC2=C(O)C[C@@](CCc3ccsc3)(C(C)C)OC2=O)c(C(C)(C)C)cc1C			IIIB	0.00007 µM
CC(C)C[C@H](NC(=O)[C@@H](NC(=O)CCCCCCCCCCCCCCC(=O)N[C@@H](Cc1ccc(N)cc1)C(=O)N[C@@H](Cc1ccccc1)C(=O)O)C(C)O)C(=O)N[C@@H](Cc1cc(I)c(Oc2cc(I)c(O)c(I)c2)c(I)c1)C(N)=O				0.0293 µM
CC[C@H](NC(=O)COc1cccc2cnccc12)C(=O)N[C@@H](Cc1ccccc1)[C@H](O)C(=O)N1CSC[C@H]1C(=O)NC(C)(C)C				0.002144 µM
CC(C)C[C@H](NC(=O)[C@@H](N)[C@@H](C)O)C(=O)N[C@@H](CC(N)=O)C(=O)N[C@@H](Cc1ccccc1)B(O)O		PR-M46I V82F I84V L90M		125 µM
COC(=O)N[C@H](C(=O)NCCCC[C@@H](CO)N(CC(C)C)S(=O)(=O)c1ccc(N)cc1)C(c1ccccc1)c1ccccc1				0.00004 µM
CC(C)C[C@H](NC(=O)[C@@H](NC(=O)CCCCCCCCCCCCCCC(=O)N[C@@H](CC(N)=O)C(=O)N[C@@H](Cc1ccccc1)C(=O)O)C(C)O)C(=O)N[C@@H](Cc1ccccc1)C(N)=O				3 µM
Cc1cccc(-c2cc(O)c(Sc3ccccc3C(C)(C)C)c(=O)o2)c1	pH 4.7			0.003 µM
CC1(C)S[C@H]([C@H](NC(=O)Cc2ccccc2)C(=O)NCc2ccccc2)N[C@H]1C(=O)N[C@H](Cc1ccccc1)[C@H](O)CC(=O)NCc1ccccc1			RF	0.00025 µM
CCOc1ccc(C[C@H](NC(=O)c2cccc(O)c2C)[C@H](O)C(=O)N2CSC(C)(C)[C@H]2C(=O)NCc2ccccc2C)cc1				0.000038 µM
CC(C)[C@H](NC(=O)COc1cccc2cnccc12)C(=O)N[C@@H](Cc1ccccc1)[C@H](O)C(=O)N1CSC[C@H]1C(=O)NC(C)(C)C				0.001498 µM
CC[C@H](C)[C@H](NC(=O)[C@@H](NC(=O)CCCCCCCCCCCCCCC(=O)N[C@@H](CC(N)=O)C(=O)N[C@@H](CC1CCCCC1)C(=O)O)C(C)O)C(=O)N[C@@H](Cc1ccccc1)C(N)=O				0.143 µM
CC(C)(C)NC(=O)[C@@H]1CCCN1C(=O)[C@@H](O)[C@H](Cc1ccccc1)NC(=O)[C@H](CC(N)=O)NC(=O)OCc1ccccc1			IIIB	0.0575 µM
CSC[C@H](NC(=O)COc1cccc2cnccc12)C(=O)N[C@@H](Cc1ccccc1)[C@H](O)C(=O)N1CSC(C)(C)[C@H]1C(=O)NC(C)(C)C				0.000088 µM
CC(C)[C@H](NC(=O)OCc1ccccc1)C(=O)N[C@@H](Cc1ccccc1)C(O)[C@H](Cc1ccccc1)NC(=O)[C@@H](NC(=O)OCc1ccccc1)C(C)C				0.01 µM
CC(C)C[C@H](NC(=O)[C@@H](NC(=O)CCCCCCCCCCCCCCC(=O)N[C@@H](CC(N)=O)C(=O)N[C@@H](Cc1cccc2ccccc12)C(=O)O)C(C)O)C(=O)N[C@H](C(N)=O)C1CCCCC1				0.0652 µM
CC(C)=CCc1c(CO)cc2oc3cc(O)c(O)c(CC=C(C)C)c3c(=O)c2c1O				7.8 ± 0.4 µM
O=C1N[C@H](Cc2ccccc2)[C@H](O)CN(Cc2ccccc2)[C@H]1Cc1ccccc1				0.01 µM
CC[C@H](C)[C@H](NC(=O)[C@H](Cc1ccccc1)C[C@H](O)[C@H](Cc1ccccc1)NC(=O)OC(C)(C)C)C(=O)NCc1ccccc1				0.00071 µM
O=C1N(Cc2ccccc2)C[C@@H](O)[C@@H](Cc2ccccc2)N1Cc1ccccc1			RF	2.5 µM
CCC(C)[C@H](NC(=O)CCCCCCCCCCCCCCC(=O)Nc1ccccc1C(=O)N[C@@H](Cc1ccccc1)C(=O)O)C(=O)N[C@@H](Cc1ccccc1)C(N)=O				0.235 µM
Cc1ccccc1CNC(=O)[C@H]1N(C(=O)[C@@H](O)[C@H](Cc2ccc3c(c2)OCO3)NC(=O)c2cccc(O)c2C)CSC1(C)C				0.000037 µM
COC(=O)CCCC[C@H]1[C@@H]2[C@H](CS1(=O)=O)N(Cc1cccc(Br)c1)C(=O)N2Cc1cccc(Br)c1				4.1 µM
CC(C)(C)NC(=O)[C@@H]1CCCN1C(=O)[C@@H](O)[C@H](Cc1ccccc1)NC(=O)[C@H](CC(N)=O)NC(=O)c1cc2ccccc2[nH]1			IIIB	0.018 µM
COc1cccc(C[C@H](NC(=O)c2cccc(O)c2C)[C@H](O)C(=O)N2CSC(C)(C)[C@H]2C(=O)NCc2c(C)cccc2C)c1				0.000029 µM